In publication PMC9954444, “SERPIN-Derived Small Peptide (SP16) as a Potential Therapeutic Agent against HIV-Induced Inflammatory Molecules and Viral Replication in Cells of the Central Nervous System” (Cells, 2023):

Experiments:
[1] = test system: endothelial cells; assay: Western blotting of LRP-1, NF-κB and Akt in endothelial cells; assay type: cell-based, human; details: 12 h
Experimental: Proteins in brain cell lysates and postmortem brain homogenates were separated by SDS-PAGE, transferred to PVDF membranes, and subsequently incubated with primary antibodies from Santa Cruz Biotechnology (Dallas, TX, USA), including NF-κB at 1:200 dilution (catalog # sc-8008) and β-actin at 1:200 dilution (catalog # sc-47778). Antibodies from Abcam (Boston, MA, USA), including Akt at dilution 1:500 (catalog # ab-38449) and LRP-1 at dilution 1:50,000 (catalog # ab-92544). After primary antibodies, membranes were incubated with horseradish peroxidase-conjugated secondary antibodies followed by exposure to SuperSignal West Femto Substrate from Thermo Scientific (Waltham, MA, USA). Membranes were visualized using a ChemiDoc imaging system from Bio-Rad (Hercules, CA, USA) and protein expression was calculated using Image J software from NIH (Bethesda, MD, USA).
Human primary astrocytes and endothelial cells seeded in 24-well plates at 80% confluency were transfected overnight with small interfering (si) RNA against LRP-1, using Lipofectamine 2000 (Invitrogen, Carlsbad, CA, USA) in Opti-MEM media according to the manufacturer’s protocol. After overnight incubation, Opti-MEM media was replaced with corresponding culture media. After 48 and 96 h post transfection, cells were treated with SP16 (25 and 100 μg/mL) for 12 and 24 h.

[2] = test system: NLRP3 inflammasome; details: macrophages in vitro; cited from earlier work
[3] = test system: astrocytes; assay: Cell viability, MTT and trypan blue, astrocytes; assay type: cell-based, human; details: range of SP16 concentrations, 24 and 96 h
Experimental: Cell proliferation and survival were measured using an MTT (3-[4,5-dimethylthiazol-2-yl]-2,5 diphenyl tetrazolium bromide) cell growth assay kit from MilliporeSigma (Temecula, CA, USA). Human brain cells at a cell density of 3 × 10^4 cells/well, were exposed to SP16 at different concentrations. After 24 and 96 h, 10 μL of 12 mM MTT solution was added to each well. After 4 h of incubation, DMSO was added to dissolve the formazan crystals. The absorbance in each well was read at 570 nm with a reference wavelength of 630 nm on a Synergy HTX microplate reader from BioTek (Winooski, VT, USA).
Cell viability was measured using trypan blue exclusion assay, which allows for the identification of live (unstained) and dead (blue) cells. Human brain cells were grown to confluency in a 24-well plate and exposed to SP16 at increasing concentrations. After 24 and 96 h, cells were harvested using enzyme-free cell dissociation buffer followed by centrifugation. Pellets were re-suspended in their specific media, and 10 μL of suspensions were diluted in an equal volume of 0.40% trypan blue dye from Bio-Rad (catalog #145-0013, Hercules, CA, USA). 10 µL was loaded on a counting chamber, and a TC20 automated cell counter determined the percentage of live cells from Bio-Rad (Hercules, CA, USA). Cell viability was expressed as the percentage of live cells out of total cells.

[4] = cited from earlier work
Source text: For the study described here, we used SP16, a peptide derived from the serine proteinase inhibitor (serpin), A1AT, found in abundance in human plasma. A1AT drugs have both pro- and anti-inflammatory structural regions, and when used to treat inflammation, the pro-inflammatory regions dampen the anti-inflammatory effect.

[5] = test system: human primary astrocytes; assay: Western blotting of LRP-1, NF-κB and Akt in astrocytes; assay type: cell-based; details: 12 h

Compound: CCCC[C@H](NC(=O)[C@H](CC(C)C)NC(=O)[C@H](Cc1ccccc1)NC(=O)[C@@H](NC(=O)[C@H](Cc1ccccc1)NC(=O)[C@@H]1CCCN1C(=O)[C@H](CCCCN)NC(=O)[C@H](CC(N)=O)NC(=O)[C@H](Cc1ccccc1)NC(=O)[C@H](CCCCN)NC(=O)[C@@H](NC(C)=O)C(C)C)C(C)C)C(=O)N[C@H](C(=O)N[C@@H](CCC(=O)O)C(=O)N[C@@H](CCC(N)=O)C(=O)N[C@@H](CC(N)=O)C(=O)N[C@H](C(=O)N[C@@H](CCCCN)C(N)=O)[C@@H](C)O)[C@@H](C)CC [SP16]
- LRP-1 expression levels ([1]; HIV-infected and non-infected endothelial cells, increased concentration of SP16): reduced LRP-1 expression levels
- expression level of NF-κB ([1]; endothelial cells, 25 μg/mL SP16): no significant changes
- expression levels of NF-κB ([1]; endothelial cells, SP16 100 and 250 μg/mL, β-actin also reduced at 250 μg/mL): significantly reduced
- expression levels of Akt ([1]; infected and non-infected endothelial cells, 25 μg/mL SP16): upregulated
- formation of the NLRP3 inflammasome [2]: reduction
- cell viability [3]: did not decrease cell viability
- cardiac liability ([4]; in vivo): no cardiac liability
- drug-specific toxicity ([4]; in vivo): no drug-specific toxicity
- humoral immune response ([4]; in vivo): no humoral immune response
- off-target effects ([4]; in vivo): no off-target effects
- safety in a phase 1 trial ([4]; in vivo): no safety concerns
- potency relative to A1AT ([4]; statement in Discussion, no test described, ref not given): 300 times
- expression level of NF-κB ([5]; astrocytes, 25 μg/mL SP16): no significant changes
- expression levels of NF-κB ([5]; astrocytes, SP16 100 and 250 μg/mL (100 μg/mL), β-actin also reduced at 250 μg/mL): significantly reduced
- expression levels of Akt ([5]; infected and non-infected astrocytes, 25 μg/mL SP16): upregulated
